Measurements as given in article PMC7038234, “Screening of Natural Extracts for Inhibitors against Japanese Encephalitis Virus Infection” (Antimicrobial Agents and Chemotherapy, 2020).

The compounds below were run on JEV strain AT31. Conditions: Primary screening of 1034 compounds in the natural extracts library.

Compound	Inhibition (%)
O=C(/C=C/c1ccc(O)c(O)c1)O[C@@H]1[C@H](O)C[C@@](O)(C(=O)O)C[C@H]1OC(=O)/C=C/c1ccc(O)c(O)c1 [Isochlorogenic acid B]	62.7768%
COc1cc2ccc(=O)oc2c(OC)c1O [Isofraxidin]	5.701%
O=c1cc(-c2ccc(O)c(O)c2)oc2cc(O)c([C@@H]3O[C@H](CO)[C@@H](O)[C@H](O)[C@H]3O)c(O)c12 [IsoorientinI]	2.497%
COc1cc(-c2oc3cc(O)cc(O)c3c(=O)c2O[C@@H]2O[C@H](CO)[C@@H](O)[C@H](O)[C@H]2O[C@@H]2O[C@@H](C)[C@H](O)[C@@H](O)[C@H]2O)ccc1O [Isorhamnetin-3-O-neohespeidoside]	1.429%
COc1cc(/C=C/c2cc(O)cc(O)c2)ccc1O [Isorhapontigenin]	45.8326%
COc1cc(C2Oc3ccc([C@H]4Oc5cc(O)cc(O)c5C(=O)[C@@H]4O)cc3OC2CO)ccc1O (stereo partly shown) [Isosilybin]	-13.837%
COc1ccc(-c2cc(=O)c3c(OC)cc(OC)c(OC)c3o2)cc1OC [Isosinensetin]	-6.089%
CCC(=O)c1cc2c(cc1O)OCO2 [Kakuol]	11.2846%
C=C1CC[C@@H]2[C@](C)(COC(=O)CCC(=O)[O-])[C@H](OC(=O)CCC(=O)O)CC[C@@]2(C)[C@@H]1/C=C/C1=CCOC1=O.[K+] [Kalii Dehydrographolidi Succinas]	10.4647%
CN1CCC[C@H]1c1cccnc1 [L-Nicotine]	-12.2927%
COC1[C@H](O)[C@@H](O)C(O)[C@H](O)[C@H]1O (stereo partly drawn) [L-Quebrachitol]	3.754%
CCN1C[C@]2(OC(=O)c3ccccc3NC(C)=O)CC[C@H](OC)[C@@]34[C@@H]2C[C@@H]([C@@H]13)[C@@]1(O)C[C@H](OC)[C@H]2C[C@@H]4[C@]1(O)[C@H]2OC [Lappaconitine]	18.2978%
COc1cc(C(=O)OCCCCN=C(N)N)cc(OC)c1O.Cl [Leonurine hydrochloride]	49.1267%
CCC/C=C1\OC(=O)C2=C1CC[C@H]1[C@H]3C=C4C(=O)O/C(=C\CCC)[C@@]4(CC3)[C@@H]21 [Levistilide A]	58.6202%
C=CC(C)(C)c1cc(/C=C/C(=O)c2ccc(O)cc2)c(OC)cc1O [Licochalcone A]	0.1303%
COc1c(/C=C/C(=O)c2ccc(O)cc2)ccc(O)c1O [Licochalcone B]	-23.6842%
COc1c(/C=C/C(=O)c2ccc(O)cc2)ccc(O)c1CC=C(C)C [Licochalcone C]	-1.113%
COc1cc2c(cc1OC)[C@@H](Cc1ccc(O)c(Oc3cc4c(cc3OC)CCN(C)[C@@H]4Cc3ccc(O)cc3)c1)N(C)CC2 [Liensinine]	97.9975%
Cc1nc(C)c(C)nc1C.Cl [Ligustrazine Hydrochloride]	20.4054%
CCCCC/C=C\C/C=C\CCCCCCCC(=O)NCc1ccccc1 [Linoleamide, N-benzyl-]	34.8673%
O=C1C[C@@H](c2ccc(O)cc2)Oc2cc(O)ccc21 [Liquiritigenin]	-13.6321%
C/C=C/C#CC#C[C@@H](O)[C@@H](/C=C/CCCO)O[C@@H]1O[C@H](CO)[C@@H](O)[C@H](O)[C@H]1O [Lobetyolin]	7.5169%
Cl.O[C@H]1[C@H]2c3cc4c(cc3CN3CCC(=C[C@@H]1O)[C@H]23)OCO4 [Lycorine chloride]	-5.437%
COc1ccc(-c2cc(=O)c3c(O)c(OC)c(O)c(OC)c3o2)cc1 [Lysionotin]	-5.768%
C[C@@H]1O[C@@H](O[C@H]2[C@H](O[C@H]3CC[C@@]4(C)[C@@H](CC[C@]5(C)[C@@H]4CC=C4[C@@H]6CC(C)(C)CC[C@]6(C(=O)O[C@@H]6O[C@H](CO[C@@H]7O[C@H](CO)[C@@H](O)[C@H](O)[C@H]7O)[C@@H](O)[C@H](O)[C@H]6O)CC[C@]45C)[C@]3(C)CO)OC[C@H](O)[C@@H]2O)[C@H](O)[C@H](O[C@@H]2O[C@H](CO)[C@@H](O)[C@H](O)[C@H]2O)[C@H]1O [Macranthoidin A]	-3.651%
